Pooled drug test results. Numbers come from NIAID ChemDB, via PubChem.

Common to all: tests in culture; organism: Varicella zoster virus; cells: HEL; measure: EC50

Conditions beyond the fields shown may differ between rows. Blank or dashed fields: not listed here. ECn: concentration that inhibits the pathogen or its effect by n%.

structure	strain or isolate	method	result
Cc1ccc(CSCc2cnc3c(Br)cc(Br)c(C)n23)cc1	YS (TK+)	plaque count	>20 µg/mL
O=C(O)CP(=O)(O)O	OKA (WILD TYPE)	cytopathic effect	50.7 µM
CCCCCCCC/C=C/CCCCCCCC(=O)O	OKA	cytopathic effect	>100 µM
Nc1ncnc2c1ncn2C[C@@H](CO)OCP(=O)(O)O	Oka CF1742-resistant	cytopathic effect	0.025 µM
Cc1ccccc1CSCc1cnc2c(Br)cc(Br)c(C)n12	YS/R (TK-)	plaque count	3.2 µg/mL
O=c1[nH]c(=O)n([C@H]2C[C@H](O)[C@@H](CO)O2)cc1I	18	plaque count	1.6 µg/mL
Nc1nc2c(ncn2CCC(CO)CO)c(=O)[nH]1	Clinical isolate VZV-12	cytopathic effect	4.27 µM
Cc1c(Br)cc(Br)c2ncc(CSCCc3ccccc3)n12	OKA (TK+)	plaque count	4 µg/mL
Nc1ccn([C@@H]2O[C@H](CO)[C@@H](O)[C@@H]2O)c(=O)n1	YS-W1 H13	plaque count	0.13 µg/mL
CCOC(=O)/C=C\C=C\[C@H]1O[C@@H](n2ccc(=O)[nH]c2=O)[C@H](O)[C@@H]1O	OKA	-	10 µM
Cc1cccn2c(CSCc3ccccc3)cnc12	OKA (TK+)	plaque count	0.9 µg/mL
Nc1nc2c(ncn2COC(CO)CO)c(=O)[nH]1	07/1 (TK-)	cytopathic effect	14 µM
CCc1ccc(OCCCc2cc3cn([C@H]4C[C@H](O)[C@@H](CO)O4)c(=O)nc3o2)cc1	(TK-)07/1	plaque count	>20 µM
O=C(O)P(=O)(O)O	OKA (WILD TYPE)	cytopathic effect	39.8 µM
Cc1ccc(OCCCc2cc3cn([C@H]4C[C@H](O)[C@@H](CO)O4)c(=O)nc3o2)cc1	(TK-)07/1	plaque count	>50 µM
Cc1c(Br)cc(Br)c2ncc(CSCc3ccc(F)cc3)n12	YS (TK+)	plaque count	>5 µg/mL
Nc1ccn(C[C@@H](CO)OCP(=O)(O)O)c(=O)n1	07/1 (TK-)	cytopathic effect	0.23 µM
O=c1nc2oc(CCCCOc3ccccc3)cc2cn1[C@H]1C[C@H](O)[C@@H](CO)O1	TK+/YS	plaque count	13 µM

Repeating the final 2 entries:

structure,strain or isolate,method,result
Nc1ccn(C[C@@H](CO)OCP(=O)(O)O)c(=O)n1,07/1 (TK-),cytopathic effect,0.23 µM
O=c1nc2oc(CCCCOc3ccccc3)cc2cn1[C@H]1C[C@H](O)[C@@H](CO)O1,TK+/YS,plaque count,13 µM